Measured values: paper PMC8339232 (Current Research in Structural Biology, 2021)

Columns and labels:
[1] = target: Rv1747 FHA regulatory domain (residues 1-310), phosphomimetic mutant T210E (Mycobacterium tuberculosis H37Rv, UniProt O65934 1-310, T210E); experiment: SAXS
[2] = target: Rv1747 FHA regulatory domain (residues 1-310), phosphomimetic mutant T152E (Mycobacterium tuberculosis H37Rv, UniProt O65934 1-310, T152E); experiment: SAXS

B1: autophosphorylated cytoplasmic catalytic domain of Mtb PknF (cPknF*, residues 1-299) (domain or fragment)
chain: MPLAEGSTFAGFTIVRQLGSGGMGEVYLARHPRLPRQDALKVLRADVSADGEYRARFNREADAAASLWHPHIVAVHDRGEFDGQLWIDMDFVDGTDTVSLLRDRYPNGMPGPEVTEIITAVAEALDYAHERRLLHRDVKPANILIANPDSPDRRIMLADFGIAGWVDDPSGLTATNMTVGTVSYAAPEQLMGNELDGRADQYALAATAFHLLTGSPPFQHANPAVVISQHLSASPPAIGDRVPELTPLDPVFAKALAKQPKDRYQRCVDFARALGHRLGGAGDPDDTRVSQPVAVAAPA
modifications: up to seven phosphate groups incorporated by autophosphorylation (intact mass 33 378 Da); sites not determined
binding result [1]: binds
binding result [2]: binds
